Measured values from several laboratories, pooled; numbers as filed in NIAID ChemDB.

Shared fields: whole-cell or culture tests; organism: Staphylococcus aureus; read-out: MIC

Lines come from different laboratories, so protocols vary.

compound,strain or isolate,result
CCN(CC)CCCNc1cc2c(cc1F)c(=O)c(C(=O)O)cn2C1CC1,ATCC 5278 (methicillin-resistant),50 µg/mL
CC(C)C(=S)NC[C@H]1CN(c2ccc3c(c2)-n2cccc2COC3)C(=O)O1,ATCC 33591 (MRSA),4 µg/mL
CC[C@H]1OC(=O)[C@H](C)C(=O)[C@H](C)[C@@H](O[C@@H]2O[C@H](C)C[C@H](N(C)C)[C@H]2O)[C@@]2(C)C[C@@H](C)C(=NC(C)=O)[C@H](C)C(OC/C=C/CO2)[C@]1(C)O,29213 (erythromycin-susceptible),1 µg/mL
CC(=O)NC[C@H]1CN(c2ccc(OC3CCN(C(=O)CO)CC3)c(F)c2)C(=O)O1,OC2878 methicillin-resistant,4 µg/mL
O=C(CCl)NC[C@H]1CN(c2ccc3c(c2)-n2cccc2COC3)C(=O)O1,ATCC 29213 (MSSA),2 µg/mL
O=C(Nc1cc(C(F)(F)F)cc(C(F)(F)F)c1)NN1CCOCC1,MI273,>300 µM
O=C(O)c1cn(C2CC2)c2cc(NCCO)c(F)cc2c1=O,ATCC 6538P,6.25 µg/mL
CC(=O)NC[C@H]1CN(c2ccc(OC3CCN(C(=O)CNC(=O)OCc4ccccc4)CC3)c(F)c2)C(=O)O1,OC4172 methicillin-susceptible,32 µg/mL
CS(=O)(=O)N1CCN(c2ccc(N3C[C@H](COc4ccon4)OC3=O)cc2F)CC1,122 (novobiocin-resistant),4 µg/mL
Cn1cc(C(=O)O)c(=O)c2cc3cc(F)c(N4CCCCCCC4)cc3nc21,LF11C128 (quinolone-resistant),1 µg/mL
NCCCCNc1cc2c(cc1F)c(=O)c(C(=O)O)cn2-c1ccc(F)cc1F,ATCC 6538P,3.1 µg/mL
CC(=O)NC[C@H]1CN(c2ccc(-c3noc(C(N)=O)n3)c(F)c2)C(=O)O1,UC6685 (methicillin-resistant),16 µg/mL
NCCCCCNc1cc2c(cc1F)c(=O)c(C(=O)O)cn2-c1ccc(F)cc1F,ATCC 6538P,3.1 µg/mL
CC(C)(Br)C(=O)NC[C@H]1CN(c2ccc3c(c2)-n2cccc2COC3)C(=O)O1,ATCC 49951 (SMITH),>32 µg/mL
CC[C@H]1OC(=O)[C@H](C)C(=O)[C@H](C)[C@@H](O[C@@H]2O[C@H](C)C[C@H](N(C)C)[C@H]2O)[C@@]2(C)C[C@@H](C)C(=NC(C)=O)[C@H](C)C(OC/C(=C\C#Cc3ccccc3)CO2)[C@]1(C)O,27660 (erythromycin-resistant),0.25 µg/mL
O=C1O[C@@H](CNc2ccon2)CN1c1ccc(N2CCOCC2)c(F)c1,078 (oxford),0.5 µg/mL
O=C(CC(=O)Nc1cccc(C(F)(F)F)c1)Nc1cccc(C(F)(F)F)c1,MI273,>300 µM
COC(=O)N1CC=C(c2ccc(C3=NO[C@@H](CNC(=O)O)C3)cc2)CC1,UC9213,2 µg/mL
CC(=O)NC[C@H]1CN(c2ccc(-c3ccn(C(C)=O)n3)c(F)c2)C(=O)O1,UC9213 (methicillin-susceptible),4 µg/mL
NCCCCCCCNc1cc2c(cc1F)c(=O)c(C(=O)O)cn2C1CC1,ATCC 6538P,>100 µg/mL
O=C(NC[C@H]1CN(c2ccc3c(c2)-n2cccc2COC3)C(=O)O1)OCc1ccccc1,ATCC 29213 (MSSA),>32 µg/mL
COCC(=O)N1CCC(Oc2ccc(N3C[C@H](CNC(C)=O)OC3=O)cn2)CC1,OC2878 methicillin-resistant,>64 µg/mL
O=C1O[C@@H](COc2ccon2)CN1c1ccc(-n2cccc2)cc1,004 (methicillin quinolone-resistant),8 µg/mL
Cc1c(NCCO)c(F)cc2c(=O)c(C(=O)O)cn(-c3cc(N)c(F)cc3F)c12,W44 (methicillin-resistant),1 µg/mL
O=C(Nc1cccc(C2=NCCN2)c1)Nc1cccc(C(F)(F)F)c1,MI273,150 µM
Cc1c(NCCCO)c(F)cc2c(=O)c(C(=O)O)cn(-c3cc(N)c(F)cc3F)c12,SMITH,0.008 µg/mL
O=C(CC(=O)Nc1cc(C(F)(F)F)cc(C(F)(F)F)c1)Nc1cccc(C2=NCCN2)c1,MI273,38 µM
Cn1cc(C(=O)O)c(=O)c2cc3cc(F)c(N4CCN(c5ccc(F)cc5)CC4)cc3nc21,IP8203 (quinolone-sensitive),0.25 µg/mL
CCCCC(CO)Nc1cc2c(cc1F)c(=O)c(C(=O)O)cn2C1CC1,ATCC 6538P,>100 µg/mL
Cc1c(N)c(F)cc2c(=O)c(C(=O)O)cn(-c3cc(N)c(F)cc3F)c12,SMITH,0.004 µg/mL
CC(=O)NC[C@H]1CN(c2ccc(OC3CCN(C(=O)COCc4ccccc4)CC3)c(F)c2)C(=O)O1,OC4172 methicillin-susceptible,16 µg/mL
CC(=O)NC[C@H]1CN(c2ccc3c(c2)OCc2nccn2-3)C(=O)O1,44 (25508),0.5 µg/mL
NC(=O)NNC(=O)Nc1cc(C(F)(F)F)cc(C(F)(F)F)c1,MI273,140 µM
CC[C@H]1OC(=O)[C@H](C)C(=O)[C@H](C)[C@@H](O[C@@H]2O[C@H](C)C[C@H](N(C)C)[C@H]2O)[C@@]2(C)C[C@@H](C)C(=NC(C)=O)[C@H](C)C(OC/C(=C\C=C\c3cccnc3)CO2)[C@]1(C)O,27660 (erythromycin-resistant),0.5 µg/mL
O=C(NNC(=O)Nc1cc(C(F)(F)F)cc(C(F)(F)F)c1)Nc1ccccc1,MI273,>200 µM
CC(=O)NCC(=O)N1CCC(Oc2ccc(N3C[C@H](CNC(C)=O)OC3=O)cc2F)CC1,OC4172 methicillin-susceptible,16 µg/mL
CC(=O)NC[C@H]1CN(c2ccc(-c3ccn(CCC#N)n3)c(F)c2)C(=O)O1,UC9213 (methicillin-susceptible),4 µg/mL
CC[C@H]1OC(=O)[C@H](C)C(=O)[C@H](C)[C@@H](O[C@@H]2O[C@H](C)C[C@H](N(C)C)[C@H]2O)[C@@]2(C)C[C@@H](C)C(=NC(C)=O)[C@H](C)C(OC/C(=C\C=C\c3ccc(OC)cc3)CO2)[C@]1(C)O,33591 (erythromycin methicillin-resistant),64 µg/mL
COc1ccc(-c2ccc(N3CC(CNC(C)=O)CC3=O)cc2)ccc1=O,UC9218,>64 µg/mL
CCC(=O)N=C1[C@H](C)C[C@@]2(C)OC/C(=C/C=C/c3ccccc3)COC([C@H]1C)[C@](C)(O)[C@@H](CC)OC(=O)[C@H](C)C(=O)[C@H](C)[C@H]2O[C@@H]1O[C@H](C)C[C@H](N(C)C)[C@H]1O,29213 (erythromycin-susceptible),0.5 µg/mL
N#Cc1cnn(-c2ccc(C3=NO[C@@H](CNC(=O)O)C3)cc2F)c1,UC9218,2 µg/mL
CC(=O)NC[C@H]1CN(c2ccc(-c3ccsc3)c(F)c2)C(=O)O1,UC6685 (methicillin-resistant),0.5 µg/mL
O=C(O)NC[C@H]1CC(c2ccc(N3CCN(C(=O)CO)CC3)c(F)c2)=NO1,UC9218,4 µg/mL
N#Cc1ccc(N2CCN(c3ccc(N4C[C@H](COc5ccncn5)OC4=O)cc3F)CC2)nc1,122 (novobiocin-resistant),16 µg/mL
CC(=S)NC[C@H]1CN(c2ccc3c(c2)-n2cccc2COC3)C(=O)O1,ATCC 49951 (SMITH),1 µg/mL
O=C(O)NC[C@H]1CC(c2cc(F)c(N3CCOCC3)c(F)c2)=NO1,UC9218,4 µg/mL

4 of the rows above, restated:

| compound | strain or isolate | result |
|---|---|---|
| CC(=O)NC[C@H]1CN(c2ccc(OC3CCN(C(=O)CNC(=O)OCc4ccccc4)CC3)c(F)c2)C(=O)O1 | OC4172 methicillin-susceptible | 32 µg/mL |
| NCCCCCNc1cc2c(cc1F)c(=O)c(C(=O)O)cn2-c1ccc(F)cc1F | ATCC 6538P | 3.1 µg/mL |
| O=C(Nc1cc(C(F)(F)F)cc(C(F)(F)F)c1)NN1CCOCC1 | MI273 | >300 µM |
| CC[C@H]1OC(=O)[C@H](C)C(=O)[C@H](C)[C@@H](O[C@@H]2O[C@H](C)C[C@H](N(C)C)[C@H]2O)[C@@]2(C)C[C@@H](C)C(=NC(C)=O)[C@H](C)C(OC/C=C/CO2)[C@]1(C)O | 29213 (erythromycin-susceptible) | 1 µg/mL |